Results of unrelated studies side by side (data: NIAID ChemDB).

All rows: whole-cell or culture tests; species: Streptococcus pneumoniae

A number after MIC or MFC names an inhibition level or a share of isolates. Conditions beyond the fields shown may differ between rows.

| compound | strain or isolate | endpoint | value |
|---|---|---|---|
| CC[C@H]1OC(=O)[C@H](C)C(=O)[C@H](C)[C@@H](O[C@@H]2O[C@H](C)C[C@H](N(C)C)[C@H]2O)[C@@]2(C)C[C@@H](C)C(=NC(C)=O)[C@H](C)C(OC/C(=N\OCc3ccccc3)CO2)[C@]1(C)O | 700906 (erythromycin-resistant-ERM) | MIC | 0.13 µg/mL |
| CC(=O)NC[C@H]1CN(c2ccc(-c3csc(C)c3)c(F)c2)C(=O)O1 | UC9912 | MIC | 0.5 µg/mL |
| NC1CCN(c2ccc3c(=O)c(C(=O)O)cn(C4CC4)c3c2Cl)C1 | R6-G8 | MIC | 0.25 µg/mL |
| CC[C@H]1OC(=O)[C@@](C)(F)C(=O)[C@H](C)[C@@H](O[C@@H]2O[C@H](C)C[C@H](N(C)C)[C@H]2O)[C@@]2(C)C[C@@H](C)C(=NC(C)=O)[C@H](C)[C@@H](OC/C(=N\OCC#Cc3cccc(N)n3)CO2)[C@]1(C)O | 700906 (erythromycin A-resistant) | MIC | 0.5 µg/mL |
| C[C@H]1NCc2cc(-c3c(F)cc4c(=O)c(C(=O)O)cn(C5CC5)c4c3OC(F)F)ccc21 | R6 | MIC | 0.015 µg/mL |
| CO/N=C1\CN(c2nc3c(cc2F)c(=O)c(C(=O)O)cn3C2CC2)CC1CN | 19 isolates (penicillin-resistant) | MIC90 | 0.063 µg/mL |
| CC[C@H]1OC(=O)[C@H](C)C(=O)[C@H](C)[C@@H](O[C@@H]2O[C@H](C)C[C@H](N(C)C)[C@H]2O)[C@@]2(C)C[C@@H](C)C(=NC(C)=O)[C@H](C)[C@@H](OC/C(=N\Oc3ccccc3)CO2)[C@]1(C)O | 7701 (erythromycin-resistant-MEF) | MIC | 0.25 µg/mL |
| O=C(NNC(=O)NC1CCCCC1)Nc1cc(C(F)(F)F)cc(C(F)(F)F)c1 | STP51 (penicillin-resistant) | MIC | 50 µM |
| CC[C@H]1OC(=O)[C@H](C)C(=O)[C@H](C)[C@@H](O[C@@H]2O[C@H](C)C[C@H](N(C)C)[C@H]2O)[C@@]2(C)C[C@@H](C)C(=NC(C)=O)[C@H](C)[C@@H](OC/C(=N\OCc3ccc(C(N)=O)s3)CO2)[C@]1(C)O | 49619 (erythromycin A-susceptible) | MIC | <0.06 µg/mL |
| O=C(NNC(=O)Nc1cc(C(F)(F)F)cc(C(F)(F)F)c1)Nc1ccccc1 | STP6301 | MIC | >200 µM |
| CC[C@H]1OC(=O)[C@H](C)C(=O)[C@H](C)[C@@H](O[C@@H]2O[C@H](C)C[C@H](N(C)C)[C@H]2O)[C@@]2(C)C[C@@H](C)C(=NC(C)=O)[C@H](C)[C@@H](OC/C(=N\OCc3ccc(-c4ncccn4)s3)CO2)[C@]1(C)O | 7701 (erythromycin A-resistant) | MIC | <0.06 µg/mL |
| O=C(O)c1cn(C2CC2)c2cc(N3CCNCC3)ccc2c1=O | R6-C11 | MIC | 32 µg/mL |
| CC[C@H]1OC(=O)[C@@](C)(F)C(=O)[C@H](C)[C@@H](O[C@@H]2O[C@H](C)C[C@H](N(C)C)[C@H]2O)[C@@]2(C)C[C@@H](C)C(=NC(C)=O)[C@H](C)[C@@H](OC/C(=N\OCc3ccc(-c4csnn4)nc3)CO2)[C@]1(C)O | 700906 (erythromycin A-resistant) | MIC | <0.06 µg/mL |
| O=C(CC(=O)Nc1cc(C(F)(F)F)cc(C(F)(F)F)c1)Nc1cccc(C2=NCCN2)c1 | STP6301 | MIC | 38 µM |
| CC[C@H]1OC(=O)[C@H](C)C(=O)[C@H](C)[C@@H](O[C@@H]2O[C@H](C)C[C@H](N(C)C)[C@H]2O)[C@@]2(C)C[C@@H](C)C(=NC(C)=O)[C@H](C)[C@@H](OC/C(=N\OCC#Cc3ncccn3)CO2)[C@]1(C)O | 7701 (erythromycin-resistant-MEF) | MIC | 0.5 µg/mL |
| CCNC(=O)[C@@H](NC(=O)Cc1ccccc1)[C@@H]1N[C@@H](C(=O)NCCNC(=O)[C@@H]2N[C@@H]([C@H](NC(=O)Cc3ccccc3)C(=O)NCC)SC2(C)C)C(C)(C)S1 | 595 strains | MIC50 | ≤0.06 µg/mL |
| COc1c(N2C[C@@H]3CCCN[C@@H]3C2)ccc2c(=O)c(C(=O)O)cn(C3CC3)c12 | R6-C11 | MIC | 1 µg/mL |
| CC[C@H]1OC(=O)[C@H](C)C(=O)[C@H](C)[C@@H](O[C@@H]2O[C@H](C)C[C@H](N(C)C)[C@H]2O)[C@@]2(C)C[C@@H](C)C(=NC(=O)CN)[C@H](C)C(OC/C(=C\C=C\c3ccccc3)CO2)[C@]1(C)O | 7701 (erythromycin-resistant-MEF) | MIC | 0.5 µg/mL |
| CO/N=C1\CN(c2nc3c(cc2F)c(=O)c(C(=O)O)cn3C2CC2)CC1CN | 28 strains (ciprofloxacin-resistant) | MIC90 | 0.5 µg/mL |
| CC[C@H]1OC(=O)[C@@](C)(F)C(=O)[C@H](C)[C@@H](O[C@@H]2O[C@H](C)C[C@H](N(C)C)[C@H]2O)[C@@]2(C)C[C@@H](C)C(=NC(C)=O)[C@H](C)[C@@H](OC/C(=N\OCc3ccc(-c4cccc(N)n4)s3)CO2)[C@]1(C)O | 7701 (erythromycin A-resistant) | MIC | <0.06 µg/mL |
| CC(=O)NC[C@H]1CN(c2ccc(-c3ccn(CC#N)n3)c(F)c2)C(=O)O1 | UC9912 | MIC | ≤0.5 µg/mL |
| CC[C@H]1OC(=O)[C@H](C)C(=O)[C@H](C)[C@@H](O[C@@H]2O[C@H](C)C[C@H](N(C)C)[C@H]2O)[C@](C)(OC)C[C@@H](C)C(=O)[C@H](C)[C@H]2N(CCCCn3cnc(-c4cccnc4)c3)C(=O)O[C@]12C | 595 strains | MIC50 | ≤0.06 µg/mL |
| COC(=O)n1ccc(-c2ccc(N3C[C@H](CNC(C)=O)OC3=O)cc2F)n1 | UC9912 | MIC | 1 µg/mL |
| CC[C@H]1OC(=O)[C@H](C)C(=O)[C@H](C)[C@@H](O[C@@H]2O[C@H](C)C[C@H](N(C)C)[C@H]2O)[C@@]2(C)C[C@@H](C)C(=NC(C)=O)[C@H](C)C(OC/C(=C\C#Cc3cccnc3)CO2)[C@]1(C)O | 49619 (erythromycin-susceptible) | MIC | <0.06 µg/mL |
| CC[C@H]1OC(=O)[C@H](C)C(=O)[C@H](C)[C@@H](O[C@@H]2O[C@H](C)C[C@H](N(C)C)[C@H]2O)[C@](C)(OC)C[C@@H](C)C(=O)[C@H](C)[C@H]2N(CCCCn3cnc(-c4cccnc4)c3)C(=O)O[C@]12C | 49619 (erythromycin A-susceptible) | MIC | 0.015 µg/mL |
| O=C(Nc1cccc(C2=NCCN2)c1)Nc1cccc(C2=NCCN2)c1 | STP51 (penicillin-resistant) | MIC | 134 µM |
| CC[C@H]1OC(=O)[C@@](C)(F)C(=O)[C@H](C)[C@@H](O[C@@H]2O[C@H](C)C[C@H](N(C)C)[C@H]2O)[C@@]2(C)C[C@@H](C)C(=NC(C)=O)[C@H](C)[C@@H](OC/C(=N\OCc3ccc(C(N)=O)cc3)CO2)[C@]1(C)O | 7701 (erythromycin A-resistant) | MIC | 0.25 µg/mL |
| CC[C@H]1OC(=O)[C@H](C)C(=O)[C@H](C)[C@@H](O[C@@H]2O[C@H](C)C[C@H](N(C)C)[C@H]2O)[C@@]2(C)C[C@@H](C)C(=NC(C)=O)[C@H](C)[C@@H](OC/C(=N\OCC#Cc3cncnc3)CO2)[C@]1(C)O | 49619 (erythromycin-susceptible) | MIC | <0.06 µg/mL |
| CC[C@H]1OC(=O)[C@H](C)C(=O)[C@H](C)[C@@H](O[C@@H]2O[C@H](C)C[C@H](N(C)C)[C@H]2O)[C@@]2(C)C[C@@H](C)C(=NC(C)=O)[C@H](C)C(OC/C(=C\C=C\c3ccc(F)cc3)CO2)[C@]1(C)O | 49619 (erythromycin-susceptible) | MIC | <0.06 µg/mL |
| CC[C@H]1OC(=O)[C@H](C)C(=O)[C@H](C)[C@@H](O[C@@H]2O[C@H](C)C[C@H](N(C)C)[C@H]2O)[C@@]2(C)C[C@@H](C)C(=NC(C)=O)[C@H](C)[C@@H](OC/C(=N\OCc3ccc(C(N)=O)cc3)CO2)[C@]1(C)O | 49619 (erythromycin-susceptible) | MIC | <0.06 µg/mL |
| CC[C@H]1OC(=O)[C@H](C)C(=O)[C@H](C)[C@@H](O[C@@H]2O[C@H](C)C[C@H](N(C)C)[C@H]2O)[C@@]2(C)C[C@@H](C)C(=NC(C)=O)[C@H](C)[C@@H](OC/C(=N/OCc3ccc(-c4cccc(N)n4)s3)CO2)[C@]1(C)O | 700906 (erythromycin A-resistant) | MIC | 2 µg/mL |
| CC[C@H]1OC(=O)[C@H](C)C(=O)[C@H](C)[C@@H](O[C@@H]2O[C@H](C)C[C@H](N(C)C)[C@H]2O)[C@@]2(C)C[C@@H](C)C(=NC(C)=O)[C@H](C)C(OC/C(=C\C=C\c3ccc([N+](=O)[O-])cc3)CO2)[C@]1(C)O | 700906 (erythromycin-resistant-ERM) | MIC | 1 µg/mL |
| CC[C@H]1OC(=O)[C@H](C)[C@@H](O[C@H]2C[C@@](C)(OC)[C@@H](O)[C@H](C)O2)[C@H](C)[C@@H](O[C@@H]2O[C@H](C)C[C@H](N(C)C)[C@H]2O)[C@](C)(O)C[C@@H](C)/C(=N\OCOCCOC)[C@H](C)[C@@H](O)[C@]1(C)O | 595 strains | MIC50 | ≤0.25 µg/mL |
| O=C(NNc1ccccn1)Nc1cc(C(F)(F)F)cc(C(F)(F)F)c1 | STP6301 | MIC | 9.7 µM |
| CC[C@H]1OC(=O)[C@@](C)(F)C(=O)[C@H](C)[C@@H](O[C@@H]2O[C@H](C)C[C@H](N(C)C)[C@H]2O)[C@@]2(C)C[C@@H](C)C(=NC(C)=O)[C@H](C)[C@@H](OC/C(=N/OCc3ccc(-c4cccc(N)n4)s3)CO2)[C@]1(C)O | 49619 (erythromycin A-susceptible) | MIC | <0.06 µg/mL |
| O=C(CC(=O)Nc1ccc(F)cc1)Nc1ccc(F)cc1 | STP51 (penicillin-resistant) | MIC | >300 µM |
| CC(=O)NC[C@H]1CN(c2ccc(-c3cc(CO)on3)c(F)c2)C(=O)O1 | UC9912 | MIC | ≤0.5 µg/mL |
| CC[C@H]1OC(=O)[C@H](C)C(=O)[C@H](C)[C@@H](O[C@@H]2O[C@H](C)C[C@H](N(C)C)[C@H]2O)[C@@]2(C)C[C@@H](C)C(=NC(C)=O)[C@H](C)[C@@H](OC/C(=N\Oc3ccc(-c4nnc(N)s4)cc3)CO2)[C@]1(C)O | 7701 (erythromycin-resistant-MEF) | MIC | <0.06 µg/mL |
| O=C(NCCO)NNC(=O)Nc1cc(C(F)(F)F)cc(C(F)(F)F)c1 | STP6301 | MIC | >200 µM |
| C=CCn1cc(-c2ccc(N3C[C@H](CNC(C)=O)OC3=O)cc2F)cn1 | UC9912 | MIC | 0.5 µg/mL |

Repeating the final 2 entries:

compound,strain or isolate,endpoint,value
O=C(NCCO)NNC(=O)Nc1cc(C(F)(F)F)cc(C(F)(F)F)c1,STP6301,MIC,>200 µM
C=CCn1cc(-c2ccc(N3C[C@H](CNC(C)=O)OC3=O)cc2F)cn1,UC9912,MIC,0.5 µg/mL